Measured values from several laboratories, pooled; numbers as filed in NIAID ChemDB.

Common to all: toxicity to cultured cells; cell line: MDBK; measure: CC50

Neighbouring rows are from separate reports.

SMILES	method	value
O=[N+]([O-])c1ccc2c(c1)c(N=NC(=S)NC1CCCCC1)c(O)n2CN1CCOCC1	-	17 µg/mL
Clc1cccc(-c2nc3ccn(Cc4ccc(Br)cc4)cc-3n2)c1	-	62 µg/mL
O=[N+]([O-])c1ccc2c(c1)c(N=NC(=S)Nc1ccc(Cl)cc1)c(O)n2CN1CCCCC1	-	19 µg/mL
CCOC(=O)c1c(CSc2ccccn2)n(C)c2cc(Br)c3c(c12)CN(C)CO3	ATP	43.9 µM
COc1cc2c(c3c1C[C@]1(C)[C@@H](C)CC[C@H]4C(C)(C)[C@@H](OC(C)=O)CC[C@]41O3)CNC2=O	-	23 µM
c1ccc(-c2nc3ccn(Cc4ccc5ccccc5c4)cc-3n2)cc1	-	21 µg/mL
CCOC(=O)c1c(CSc2ccccc2)n(C)c2cc(-c3cccnc3)c3c(c12)CN(C)CO3	ATP	52.2 µM
CC(=O)N[C@H](C(=O)N[C@@H](CCC(=O)O)C(=O)N[C@@H](CC(C)C)C(=O)N[C@@H](CCCCN)C(=O)N[C@@H](CCC(=O)O)C(=O)NC(CC(C)C)B1OC(C)(C)C(C)(C)O1)C(C)O.O=C(O)C(F)(F)F	crystal violet	>90 µM
CC1S/C(=N/N=C2\C(=O)Nc3ccc([N+](=O)[O-])cc32)N(c2ccc(F)cc2)C1=O	-	3 µg/mL
CC(=O)O[C@H]1CC[C@@]23Oc4c(c(O)cc5c4CNC5=O)C[C@]2(C)[C@@H](C)CC[C@H]3C1(C)C	-	44 µM
Cc1ccc(NC(=S)N=Nc2c(O)n(CN3CCCCC3)c3ccc([N+](=O)[O-])cc23)cc1	-	19 µg/mL
C[C@H]1CC[C@H]2C(C)(C)[C@H](O)CC[C@]23Oc2c(c(O)cc4c2CNC4=O)C[C@]13C	-	>65 µM
c1ccc(-c2nc3ccn(CC4CCCCC4)cc-3n2)cc1	-	20 µg/mL
CC(=O)O[C@@H]1C[C@@H](CO)O[C@H]1n1cc(/C(Cl)=C\I)c(=O)[nH]c1=O	neutral red	>100 µM
CC(C)NC(=O)[C@@H]1[C@H](O)[C@@H](O)CN1C(=O)c1ccoc1	visual reading	>300 µM
CCOC(=O)c1c(CSc2cccs2)n(C)c2cc(Br)c3c(c12)CN(C)CO3	ATP	1 µM
Fc1cccc(F)c1-c1nc2ccn(CCc3ccccc3)cc-2n1	-	60 µg/mL
O=C1Nc2ccc([N+](=O)[O-])cc2/C1=N/N=C1/SCC(=O)N1c1ccc(F)cc1	-	9 µg/mL
CC(=O)O[C@@H]1[C@H](OC(C)=O)[C@@H](CO)O[C@H]1n1cc(/C(Cl)=C\I)c(=O)[nH]c1=O	neutral red	>100 µM
CCCCNC(=S)N=Nc1c(O)n(CN2CCOCC2)c2ccc([N+](=O)[O-])cc12	-	19 µg/mL
CCOC(=O)c1c(Cc2ccc(O)cc2)n(C)c2cc(Br)c3c(c12)CN(C)CO3	ATP	71.1 µM
C[C@H]1CC[C@H]2C(C)(C)C(=O)CC[C@]23Oc2c(c(O)cc4c2C(=O)NC4=O)C[C@]13C	-	94 µM
CCOC(=O)c1c(CSc2ccccc2)n(C)c2cc(Br)c(O)c(CN(N3CCN(CCO)CC3)N3CCN(CCO)CC3)c12	ATP	52.3 µM
Fc1cccc(Cn2ccc3nc(-c4ccccc4)nc-3c2)c1	-	8.1 µg/mL
CC1(C)[C@H]2CC[C@]1(C)C(=O)C2	MTT	4420 µg/mL
C[C@H]1CC[C@H]2C(C)(C)C(=O)CC[C@]23Oc2c(c(O)cc4c2CNC4=O)C[C@]13C	-	98 µM
CN1Cc2c(O)c(-c3cccnc3)cc3c2c(c(CSc2ccccc2)n3C)C1=O	ATP	49 µM
COc1ccc2c(c1)[C@@H]1C[C@]1(C(=O)N1[C@@H]3CC[C@H]1CN(C)C3)Cn1c-2c(C2CCCCC2)c2ccc(C(=O)NS(=O)(=O)N(C)C)cc21	resazurin	30 µM
CCCCNC(=S)N=Nc1c(O)[nH]c2ccc([N+](=O)[O-])cc12	-	>50 µg/mL
CCOC(=O)c1c(CSc2ccccc2)n(C)c2cc(-c3ccncc3)c3c(c12)CN(C)CO3	ATP	22.2 µM
CCCCN1C(=O)CS/C1=N/N=C1\C(=O)Nc2ccc([N+](=O)[O-])cc21	-	>50 µg/mL
CC(=O)O[C@@H]1C[C@@H](CO)O[C@H]1n1cc(/C(Br)=C\I)c(=O)[nH]c1=O	neutral red	>100 µM

A second listing of 4 rows from above:

SMILES | method | value
CCOC(=O)c1c(CSc2ccccc2)n(C)c2cc(Br)c(O)c(CN(N3CCN(CCO)CC3)N3CCN(CCO)CC3)c12 | ATP | 52.3 µM
CC1(C)[C@H]2CC[C@]1(C)C(=O)C2 | MTT | 4420 µg/mL
Cc1ccc(NC(=S)N=Nc2c(O)n(CN3CCCCC3)c3ccc([N+](=O)[O-])cc23)cc1 | - | 19 µg/mL
CC(=O)O[C@@H]1C[C@@H](CO)O[C@H]1n1cc(/C(Cl)=C\I)c(=O)[nH]c1=O | neutral red | >100 µM

Blank or dashed fields: not listed here. CCn is the concentration with n% toxicity to the cells.